This assay deals with wild-type HCV genotype 1b NS5B protein (Hepatitis C virus genotype 1b (isolate Con1) (HCV), UniProt Q9WMX2). Kind of assay: HCV polymerase enzyme assay, wild-type. In kind it is biochemical. To be noted: read-out: Wild-Type IC50, nucleoside triphosphates, recombinant genotype 1b NS5B, tested form: triethylammonium salt. An excerpt: Test compounds in the form of nucleoside triphosphates were examined for inhibitory activity against purified HCV polymerase in a standard assay. Bacterial expression constructs encoding the approximately 65 kDa HCV genotype 1b NS5B protein were used to generate recombinant HCV polymerases (with a deletion of the 21 carboxy terminal amino acids). Both the wild-type genotype 1b protein and protein containing the S282T mutation were expressed and purified for use in the enzymatic activity assay.
The enzymatic activity assay measured the inhibitory effect of increasing concentrations of test compound on the incorporation of α-[^33P]-labeled nucleotide into trichloroacetic acid-precipitable material. Recombinant polymerase and synthetic RNA template were combined in reaction buffer containing ribonucleoside triphosphates, α-[^33P]-labeled nucleotide and eight concentrations of test compound in three-fold dilutions. […]
Reactions were terminated by the addition of ice-cold trichloroacetic acid and sodium pyrophosphate to promote precipitation of newly-synthesized ribonucleic acid. Precipitable material from the reactions was collected by filtration onto 96-well filter plates, washed extensively with water, and quantified by liquid scintillation.
The inhibitory activity of test compounds was determined by fitting results to dose-response curves using XLfit software.

Here are results for one molecule from patent publication US10513534B2, “2′-chloro nucleoside analogs for HCV infection” (priority 2012, dated 2019).

For the molecule `C[C@@]1(Cl)[C@H](O)[C@@H](COP(=O)(O)OP(=O)(O)OP(=O)(O)O)O[C@H]1n1ccc(N)nc1=O`, the IC50 (usually the concentration that inhibits the measured activity by half) was 1 to 10 µM.
